From ChEMBL document CHEMBL1148339, “Synthesis, structure-activity relationships, and drug resistance of beta-d-3'-fluoro-2',3'-unsaturated nucleosides as anti-HIV Agents” (J Med Chem, 2004)

How the values were obtained:
[1] = molecular target: T1, Adenosine deaminase (Bos taurus) (UniProt P56658); assay: Kcat value against adenosine deaminase (ADA)
T1 sequence (whole entry): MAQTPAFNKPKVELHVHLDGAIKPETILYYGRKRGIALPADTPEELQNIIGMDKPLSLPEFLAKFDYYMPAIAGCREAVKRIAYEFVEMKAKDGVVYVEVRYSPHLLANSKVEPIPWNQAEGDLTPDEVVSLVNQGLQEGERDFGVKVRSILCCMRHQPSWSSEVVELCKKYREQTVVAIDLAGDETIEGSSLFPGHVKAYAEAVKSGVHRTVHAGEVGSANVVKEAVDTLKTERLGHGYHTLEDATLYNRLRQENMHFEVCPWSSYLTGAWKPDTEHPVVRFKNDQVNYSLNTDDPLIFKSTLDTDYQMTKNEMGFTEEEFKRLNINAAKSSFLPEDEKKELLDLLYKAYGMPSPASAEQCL

[2] = molecular target: T1, Adenosine deaminase (Bos taurus); assay: Kcat/KM of compound against adenosine deaminase (ADA) was determined
Method in brief: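 Deamination by calf intestinal mucosa adenosine deaminase (0.15 units, MW 33 000, in 2 mL) in phosphate buffer pH 7.4 at 25 °C, substrate 15–100 μM, monitored by UV at 265 nm. Initial rates from graphical fitting of concentration vs time; Vmax and KM from Lineweaver–Burk plot, kcat calculated from enzyme amount.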

k cat [1]: 31.8 s⁻¹ | k cat/Km [2]: 3.6e+06 M⁻¹ s⁻¹
Structure (SMILES): Nc1ncnc2c1ncn2[C@H]1C=C(F)[C@@H](CO)O1
